{
  "source": "patent US20260144796A1",
  "about": "“Compounds and Methods for Improving Health” (Acurx Pharmaceuticals, Inc., priority 2022, published 2026)",
  "test_system": "C. difficile clinical isolates",
  "assay": "Agar dilution MIC, C. difficile clinical isolates with reduced susceptibility to metronidazole, vancomycin or fidaxomicin",
  "settings": "vancomycin, fidaxomicin",
  "data": [
    {"compound": "O=c1[nH]c(NCc2ccc(Cl)c(Cl)c2)nc2ncn(CCN3CCOCC3)c12", "note": "[Ibezapolstat, 2-((3,4-dichlorobenzyl)amino)-7-(2-morpholinoethyl)-1,7-dihydro-6H-purin-6-one]", "values": [
      {"measurement": "MIC50 and MIC90, susceptible versus reduced susceptible isolates", "value": "did not differ"}
    ]}
  ]
}
